Measured values from several laboratories, pooled; numbers as filed in NIAID ChemDB.

All rows: tests in culture; species: Mycobacterium avium complex

ECn is the concentration giving n% inhibition of infection, replication or growth.

{"compound": "Cc1c(F)ccc(-n2cc(C(=O)O)c(=O)c3cc(F)c(N4CC(C)NC(C)C4)cc32)c1F", "strain or isolate": "14 strains", "endpoint": "MIC50", "result": "≥32 µg/mL"}
{"compound": "NC[C@H]1O[C@H](O[C@H]2[C@H](O)[C@@H](O[C@H]3O[C@H](CO)[C@@H](O)[C@H](N)[C@H]3O)[C@H](N)C[C@@H]2N)[C@H](O)[C@@H](O)[C@@H]1O", "strain or isolate": "Isolate C-28", "endpoint": "MIC", "result": "≤12.5 µg/mL"}
{"compound": "Nc1ccc(C(=O)O)c(O)c1", "strain or isolate": "97 strains", "method": "agar", "endpoint": "inhibition", "tested at": "5 µg/mL", "result": "4%"}
{"compound": "NC1CCN(c2nc3c(cc2F)c(=O)c(C(=O)O)cn3-c2ccc(F)cc2F)C1", "strain or isolate": "25 isolates", "endpoint": "MBC90", "result": ">8 µg/mL"}
{"compound": "CC1CN(c2cc3c(cc2F)c(=O)c(C(=O)O)cn3C2CC2)CCN1", "strain or isolate": "14 strains", "endpoint": "MIC50", "result": "0.5 µg/mL"}
{"compound": "CC1CN(c2c(F)cc3c(=O)c(C(=O)O)cn(C4CC4)c3c2F)CCN1", "strain or isolate": "1172733", "endpoint": "MIC", "result": "1 µg/mL"}
{"compound": "COc1c(N2CCNCC2)c(F)cc2c(=O)c(C(=O)O)cn(-c3ccc(F)cc3F)c12", "strain or isolate": "14 strains", "endpoint": "MIC50", "result": "≥32 µg/mL"}
{"compound": "CN[C@@H]1[C@H](O)[C@H](NC)[C@H]2O[C@@]3(O)C(=O)C[C@@H](C)O[C@H]3O[C@@H]2[C@H]1O", "strain or isolate": "ATCC 35718", "endpoint": "MBC", "result": ">64 µg/mL"}
{"compound": "CO[C@H]1/C=C/O[C@@]2(C)Oc3c(C)c(O)c4c(O)c(c5c(c4c3C2=O)NC2(CCN(CC(C)C)CC2)N=5)=NC(=O)/C(C)=C\\C=C\\[C@H](C)[C@H](O)[C@@H](C)[C@@H](O)[C@@H](C)[C@H](OC(C)=O)[C@@H]1C", "strain or isolate": "52 isolates", "endpoint": "MIC90", "result": "1.56 µg/mL"}
{"compound": "Cc1c(F)c(N2CCNC(C)C2)c(C(F)(F)F)c2c1c(=O)c(C(=O)O)cn2C1CC1", "endpoint": "MIC90", "result": "16 µg/mL"}
{"compound": "NC1CCN(c2c(F)cc3c(=O)c(C(=O)O)cn(C4CC4)c3c2F)C1", "strain or isolate": "1915112", "endpoint": "MIC", "result": "16 µg/mL"}
{"compound": "CC(C)(C)n1cc(C(=O)O)c(=O)c2cc(F)c(N3CCNCC3)nc21", "endpoint": "MIC50", "result": "4 µg/mL"}
{"compound": "NC(=O)c1cnccn1", "strain or isolate": "101", "endpoint": "MBC", "result": ">64 µg/mL"}
{"compound": "CCC1CN(c2c(F)cc3c(=O)c(C(=O)O)cn(-c4ccc(F)cc4F)c3c2OC)CCN1", "strain or isolate": "14 strains", "endpoint": "MIC50", "result": "≥32 µg/mL"}
{"compound": "NCCC(O)C(N)CC(=O)NC1CNC(=O)C(C2CCN=C(N)N2)NC(=O)/C(=C/NC(N)=O)NC(=O)C(CO)NC(=O)C(CO)NC1=O", "strain or isolate": "TMC 1469", "endpoint": "MIC", "result": "12.5 µg/mL"}
{"compound": "CC[C@@H](CO)NCCN[C@@H](CC)CO", "strain or isolate": "101-5", "endpoint": "MBC", "result": "15 µg/mL"}
{"compound": "CC(C)N=c1cc2n(-c3ccc(Cl)cc3)c3ccccc3nc-2cc1Nc1ccc(Cl)cc1", "strain or isolate": "SK32/HIV+", "endpoint": "MIC", "result": "1 µg/mL"}
{"compound": "CN[C@@H]1[C@H](O[C@H]2[C@H](O[C@H]3[C@H](O)[C@@H](O)[C@H](N=C(N)N)[C@@H](O)[C@@H]3N=C(N)N)O[C@@H](C)[C@]2(O)C=O)O[C@@H](CO)[C@H](O)[C@H]1O", "strain or isolate": "TMC 1406", "endpoint": "MIC", "result": "0.39 µg/mL"}
{"compound": "CC(C)N1CCN(c2cc3c(cc2F)c(=O)c(C(=O)O)cn3C(C)(C)C)CC1", "strain or isolate": "14 strains", "endpoint": "MIC50", "result": "2 µg/mL"}
{"compound": "CC[C@@H](CO)NCCN[C@@H](CC)CO", "strain or isolate": "3350", "endpoint": "MBC", "result": "30 µg/mL"}
{"compound": "CC(C)N1CCN(c2c(F)cc3c(=O)c(C(=O)O)cn(C4CC4)c3c2Cl)CC1", "strain or isolate": "14 strains", "endpoint": "MIC50", "result": "2 µg/mL"}
{"compound": "CCNCC1CN(c2c(F)cc3c(=O)c(C(=O)O)cn(C4CC4)c3c2F)CC1CNCC", "strain or isolate": "1172733", "endpoint": "MIC", "result": "32 µg/mL"}
{"compound": "O=[N+]([O-])[O][Ga]([O][N+](=O)[O-])[O][N+](=O)[O-]", "strain or isolate": "2", "endpoint": "EC50", "result": "<500 µM"}
{"compound": "CN[C@@H]1[C@@H](O)[C@@H](O[C@@H]2[C@@H](O)[C@H](O[C@H]3O[C@H](CN)CC[C@H]3N)[C@@H](N)C[C@H]2N)OC[C@]1(C)O", "strain or isolate": "Isolate 53", "endpoint": "MIC", "result": "1.56 µg/mL"}
{"compound": "O=C(O)c1cn(-c2ccc(F)cc2)c2cc(N3CCNCC3)c(F)cc2c1=O", "strain or isolate": "14 strains", "endpoint": "MIC50", "result": "4 µg/mL"}
{"compound": "O=C(O)c1cn(C2CC2)c2c(F)c(N3CC4C(CO)C4C3)c(F)cc2c1=O", "endpoint": "MIC90", "result": "32 µg/mL"}
{"compound": "CO/N=C(/C(=O)N[C@@H]1C(=O)N2C(C(=O)[O-])=C(C[N+]3(C)CCCC3)CS[C@H]12)c1csc(N)n1", "strain or isolate": "14 strains", "endpoint": "inhibition", "tested at": "32 µg/mL", "result": "0%"}
{"compound": "CCn1cc(C(=O)O)c(=O)c2cc(F)c(N3CCN(C(C)C)CC3)cc21", "strain or isolate": "14 strains", "endpoint": "MIC50", "result": "≥32 µg/mL"}
{"compound": "CO[C@H]1/C=C/O[C@@]2(C)Oc3c(C)c(O)c4c(O)c(c(/C=N/N5CCN(C/C=C/c6ccccc6)CC5)c(O)c4c3C2=O)NC(=O)/C(C)=C\\C=C\\[C@H](C)[C@H](O)[C@@H](C)[C@@H](O)[C@@H](C)[C@H](OC(C)=O)[C@@H]1C", "strain or isolate": "5718", "endpoint": "MBC", "result": "2 µg/mL"}
{"compound": "CO[C@H]1/C=C/O[C@@]2(C)Oc3c(C)c(O)c4c(O)c(c5c(c4c3C2=O)NC2(CCN(CC(C)C)CC2)N=5)=NC(=O)/C(C)=C\\C=C\\[C@H](C)[C@H](O)[C@@H](C)[C@@H](O)[C@@H](C)[C@H](OC(C)=O)[C@@H]1C", "strain or isolate": "3009-4", "endpoint": "MIC", "result": "1 µg/mL"}
{"compound": "CN[C@@H]1[C@H](O[C@H]2[C@H](O[C@H]3[C@H](O)[C@@H](O)[C@H](N=C(N)N)[C@@H](O)[C@@H]3N=C(N)N)O[C@@H](C)[C@]2(O)C=O)O[C@@H](CO)[C@H](O)[C@H]1O", "strain or isolate": "101", "endpoint": "MBC", "result": "16 µg/mL"}
{"compound": "CC(C)(N)C1CCN(c2c(F)cc3c(=O)c(C(=O)O)cn(C4CC4)c3c2F)C1", "strain or isolate": "PI12/39", "endpoint": "MIC", "result": "2 µg/mL"}
{"compound": "CN[C@@H]1[C@@H](O)[C@@H](O[C@@H]2[C@@H](O)[C@H](O[C@H]3O[C@H](CN)CC[C@H]3N)[C@@H](N)C[C@H]2N)OC[C@]1(C)O", "strain or isolate": "25 isolates", "endpoint": "MBC90", "result": ">64 µg/mL"}
{"compound": "C[C@@H]1CN(c2c(F)c(N)c3c(=O)c(C(=O)O)cn(C4CC4)c3c2F)C[C@H](C)N1", "strain or isolate": "26", "method": "broth dilution", "endpoint": "MIC", "result": "1 µg/mL"}
{"compound": "O=[N+]([O-])c1ccccc1Sn1cnc2c(=S)nc[nH]c21", "method": "resazurin", "endpoint": "EC50", "result": "<12.5 µM"}
{"compound": "NC[C@H]1O[C@H](O[C@H]2[C@H](O)[C@@H](O[C@H]3O[C@H](CO)[C@@H](O)[C@H](N)[C@H]3O)[C@H](N)C[C@@H]2N)[C@H](N)[C@@H](O)[C@@H]1O", "strain or isolate": "Isolate 49", "endpoint": "MIC", "result": "12.5 µg/mL"}
{"compound": "CN(C)CC1CCN(c2c(F)cc3c(=O)c(C(=O)O)cn(C4CC4)c3c2F)C1", "strain or isolate": "1988557", "endpoint": "MIC", "result": "0.5 µg/mL"}
{"compound": "CNC1CCN(c2c(F)cc3c(=O)c(C(=O)O)cn(C4CC4)c3c2F)C1", "endpoint": "MIC50", "result": "2 µg/mL"}
{"compound": "NC[C@@H]1O[C@H](O[C@H]2[C@@H](O)[C@H](O[C@@H]3[C@@H](O)[C@H](N)C[C@H](N)[C@H]3O[C@H]3O[C@H](CO)[C@@H](O)[C@H](O)[C@H]3N)O[C@@H]2CO)[C@H](N)[C@@H](O)[C@@H]1O", "strain or isolate": "101", "endpoint": "MIC", "result": "<1.56 µg/mL"}
{"compound": "O=C(O)c1cn(C2CC2)c2c(F)c(N3CCC(n4ccnc4)C3)c(F)cc2c1=O", "endpoint": "MIC50", "result": "8 µg/mL"}
{"compound": "NC[C@@H]1O[C@H](O[C@H]2[C@@H](O)[C@H](O[C@@H]3[C@@H](O)[C@H](N)C[C@H](N)[C@H]3O[C@H]3O[C@H](CO)[C@@H](O)C[C@H]3N)O[C@@H]2CO)[C@H](N)[C@@H](O)[C@@H]1O[C@H]1O[C@H](CO)[C@@H](O)[C@H](O)[C@@H]1O", "strain or isolate": "TMC 1411", "endpoint": "MIC", "result": "0.05 µg/mL"}

6 of the rows above, restated:

O=C(O)c1cn(C2CC2)c2c(F)c(N3CC4C(CO)C4C3)c(F)cc2c1=O ; endpoint: MIC90 ; result: 32 µg/mL
CN[C@@H]1[C@@H](O)[C@@H](O[C@@H]2[C@@H](O)[C@H](O[C@H]3O[C@H](CN)CC[C@H]3N)[C@@H](N)C[C@H]2N)OC[C@]1(C)O ; strain or isolate: Isolate 53 ; endpoint: MIC ; result: 1.56 µg/mL
C[C@@H]1CN(c2c(F)c(N)c3c(=O)c(C(=O)O)cn(C4CC4)c3c2F)C[C@H](C)N1 ; strain or isolate: 26 ; method: broth dilution ; endpoint: MIC ; result: 1 µg/mL
O=[N+]([O-])c1ccccc1Sn1cnc2c(=S)nc[nH]c21 ; method: resazurin ; endpoint: EC50 ; result: <12.5 µM
Nc1ccc(C(=O)O)c(O)c1 ; strain or isolate: 97 strains ; method: agar ; endpoint: inhibition ; tested at: 5 µg/mL ; result: 4%
Cc1c(F)c(N2CCNC(C)C2)c(C(F)(F)F)c2c1c(=O)c(C(=O)O)cn2C1CC1 ; endpoint: MIC90 ; result: 16 µg/mL

Percent inhibition refers to the dose given; in toxicity tests it is the harm to the cells. A number after MIC or MFC names an inhibition level or a share of isolates. Neighbouring rows are from separate reports.